# Fitness effects across NS2B and the NS3 protease domain of Zika virus

The measurements come from Ni et al. 2025 (doi:10.1038/s41467-025-63602-z).

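Libraries of single mutants were passaged as virus pools on Huh-7.5 cells. Deep sequencing gave the change in frequency of each mutant relative to wild type, averaged over three replicate libraries (two for positions 207-308). The aim was to find sites where inhibitor-binding pockets cannot change.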

Protein: NS2B and the protease part of NS3 of Zika virus strain MR766. Positions count along the chain below; NS2B spans 2-131 and NS3 starts at 132.
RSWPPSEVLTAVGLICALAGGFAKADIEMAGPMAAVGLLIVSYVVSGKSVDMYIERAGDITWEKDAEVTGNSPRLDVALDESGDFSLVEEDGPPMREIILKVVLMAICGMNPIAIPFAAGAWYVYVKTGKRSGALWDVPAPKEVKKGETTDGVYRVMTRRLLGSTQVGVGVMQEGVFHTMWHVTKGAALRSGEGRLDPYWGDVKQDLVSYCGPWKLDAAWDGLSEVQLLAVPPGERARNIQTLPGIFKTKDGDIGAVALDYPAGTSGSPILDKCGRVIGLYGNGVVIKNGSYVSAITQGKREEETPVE

Values are log2 effects on growth: 0 is wild type, lower means poorer growth.
Substitutions are written as wild-type residue, site number, new residue.
Values above 0 are not proof of better growth: six high scorers were tested one by one, five grew less well than wild type and one about as well.

| change | effect (log2) |
|---|---|
| S2D | -6.55 |
| W3* | -6.81 |
| W3N | -5.43 |
| V8* | -6.61 |
| V8I | -1.46 |
| A11D | -5.81 |
| A11M | -3.98 |
| A11N | -6.23 |
| V12T | 0.69 |
| G13E | -5.47 |
| K24A | -1.64 |
| A25I | 0.17 |
| A25L | -0.32 |
| A30R | -2.72 |
| M33R | -7.26 |
| A34P | -7.22 |
| A35C | -1.51 |
| V36N | -3.88 |
| I40D | -4.74 |
| I40R | -6.22 |
| V41N | -5.26 |
| V44A | -4.78 |
| S46D | -5.47 |
| S46Y | -3.46 |
| G47S | -4.77 |
| K48I | -4.67 |
| D51V | -5.79 |
| R56E | -5.62 |
| D59M | -4.57 |
| D65P | -7.39 |
| T69V | -7.10 |
| R74G | -7.51 |
| V77P | -7.44 |
| E89S | -0.43 |
| D91H | -1.29 |
| I99H | -5.40 |
| I99Y | -3.60 |
| L100N | -5.71 |
| G109L | -7.03 |
| A114F | -0.33 |
| I115N | -6.07 |
| A119T | -1.32 |
| V124F | -1.00 |
| K127L | -7.92 |
| T128W | -5.96 |
| G129I | -5.58 |
| G133C | -5.41 |
| G133W | -5.95 |
| L135K | -6.98 |
| W136T | -7.40 |
| D137C | -5.91 |
| V138E | -5.85 |
| V138I | -0.83 |
| V138M | -3.01 |
| P139L | -7.01 |
| V144W | -2.90 |
| T158R | -5.78 |
| G163Y | -2.31 |
| V171K | -4.83 |
| V176G | -6.33 |
| F177Y | -4.95 |
| W181L | -4.70 |
| V183P | -5.82 |
| K185* | -7.46 |
| K185M | -5.36 |
| G192P | -6.26 |
| G192W | -5.98 |
| G194N | -5.66 |
| R195F | -5.40 |
| R195W | -5.66 |
| L196M | -2.36 |
| L196T | -6.87 |
| D197* | -8.59 |
| D197M | -4.49 |
| D197S | -1.22 |
| G201F | -5.30 |
| G201N | -5.24 |
| V203S | -8.28 |
| L207F | -7.39 |
| C211K | -5.13 |
| G212F | -6.45 |
| D221C | -5.24 |
| D221W | -4.62 |
| E225P | -4.17 |
| A230T | -3.15 |
| V231E | -5.03 |
| V231P | -4.04 |
| P232C | 0.01 |
| P232I | -0.37 |
| N239Q | -5.45 |
| L243H | -1.71 |
| F247* | -7.93 |
| F247C | -6.13 |
| F247K | -6.08 |
| K248I | 0.08 |
| T249L | 1.32 |
| T249V | -5.99 |
| K250S | -2.27 |
| D253K | -5.32 |
| D253P | -6.44 |
| G255A | -7.37 |
| A256I | -5.68 |
| A256R | -7.06 |
| G267F | -5.78 |
| S268L | -6.31 |
| D272A | -4.39 |
| G275N | -1.90 |
| G282E | -3.79 |
| K288* | -6.14 |
| S294F | -5.02 |
| A295T | -6.52 |
| I296F | -4.64 |
| E302T | 0.47 |

The last 9 entries again:

change,effect (log2)
S268L,-6.31
D272A,-4.39
G275N,-1.90
G282E,-3.79
K288*,-6.14
S294F,-5.02
A295T,-6.52
I296F,-4.64
E302T,0.47

Positions 1-103, 104-206 and 207-308 were made and measured as separate libraries.
Stop codons (*) centre on -7 and mark the level of dead virus.
Position 1 still belongs to NS2A. In the paper, -1 or higher counts as tolerated.